In the series the target is T1, r-YycF (His-GB1-YycF) (UniProt Q8CQK0).
T1 sequence (looked up): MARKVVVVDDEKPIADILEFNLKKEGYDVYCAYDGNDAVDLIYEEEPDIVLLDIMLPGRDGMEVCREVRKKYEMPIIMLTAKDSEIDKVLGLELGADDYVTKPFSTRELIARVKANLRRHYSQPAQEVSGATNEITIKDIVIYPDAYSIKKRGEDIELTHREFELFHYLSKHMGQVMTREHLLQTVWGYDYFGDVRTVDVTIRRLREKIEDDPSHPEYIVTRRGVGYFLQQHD
Description: EMSA. The following applies: EMSA: 20 nM DNA, 10 mM Tris pH 8.0, 25 mM KCl, 1 mM EDTA, 2.5 mM MgCl2, 5% glycerol, 37 C 30 min; recombinant protein; residues 1-233; probe letters rebuilt from the primers and the genome.

Tags and fusion partners may be left off the protein sequences shown.

For “CTTTCCCTCAGTCTTTTATGCCCATATCAATTCATGTAAATTTTCACAAGTATCAGAAAACAATCTAACACAATATAAAAAAATAAATCAAAAAGAAAAATGATATATTTAATCATTTTTTTATTTTTGTACTTCATCTTTTCTATTAGATATAAAAAAAGATGTGTCGTGTTGAGAGTTCAACATTAAATGAAAAACCCAGAAACTCTCTGATAGAGAAACACGATCACATCTTTTAATTCATTCATGATCTCTTTAGTTTTTAAAGCGATTTGCTAAACTAAGTATATCTTCGATGATATTTAATAAGTTGATAAACAAATTAAATCCCATTTCTCTTGGTGAGAATTGACC (double strand) [sarX promoter (serp3220 upstream)]”, the binding result is “binds”. With “GAATATAGCAAATGCTACATTGCTAATTCAAGTATAATCTTTAAAAGATAATTTGTTTTATAAACACTTATTTGTTTACTTCTTAATTTTATTTAGTTATAATTAACTAAATAATATAGCATTAAATATATTCTTTAAATTTAAATTAATACTATATTATGACGGACACTTTCGTATTTTCATAAGAAAAATAGATATAAATTAATAAATTAGGGTATAGTATCCAAGTAATCTTAATTCAATAATATAATTAACTATCTTTAAATTTAAAAAGATGGGTTTTAAGATTTATGGATATGATATAAATAGGGAGGTTTCATTA (double strand) [sarA promoter]”, the binding result is recorded as “binds”.
